This note sets out measurements from patent US6844358B2, “Phenyl oxo-acetic acids useful in the treatment of insulin resistance and hyperglycemia” (Wyeth, priority 1998, dated 2005).

Assay [1] has as its system rat hepatic microsomal PTPases. Put plainly: Inhibition of tri-phosphorylated insulin receptor dodecaphosphopeptide dephosphorylation by rat hepatic PTPases. The settings on record: 50 μM compound, rat hepatic microsomal PTPase.
The test system of assay [2] is Human recombinant PTP1B (hPTP1B). Put plainly: Inhibition of tri-phosphorylated insulin receptor dodecaphosphopeptide dephosphorylation by hPTP1B. It counts as biochemical. The settings on record: reference standards; enzyme form (rPTP1B/hPTP1B) not given.

`O=[As]c1ccccc1` (centres unmarked): in assay [1], the “% Change from Control at 50 μM” value is −57%. The “% change from control at 10 μM” value in assay [2] was determined as 39.7%.
